Measured values from US6077680A (dated 2000).
Like-named read-outs stand apart in the source and are kept apart here.

How the values were obtained:
[1] = target: rat brain membrane K channels (delayed rectifier, primarily Kv1.2) (rat) (UniProt P63142)
[2] = target: rat brain membrane K channels (delayed rectifier, primarily Kv1.2) (rat) (UniProt P63142); assay: 125I-DTX displacement, rat brain membranes
[3] = target: rat brain membrane K channels (delayed rectifier, primarily Kv1.2) (rat) (UniProt P63142); remark: listed apart in the source
[4] = target: rat brain membrane K channels (delayed rectifier, primarily Kv1.2) (rat) (UniProt P63142); remark: listed apart in the source
[5] = target: Kv1.3 potassium channel of human T lymphocytes (human) (UniProt P22001)
[6] = target: rat brain membrane K channels (delayed rectifier, primarily Kv1.2) (rat) (UniProt P63142); remark: listed apart in the source
[7] = target: Kv1.3 potassium channel of human T lymphocytes (human) (UniProt P22001); assay: 125I-ChTX displacement, Jurkat T lymphocytes
[8] = target: cloned Kv1.3 channel, wild type
[9] = target: rat brain membrane K channels (delayed rectifier, primarily Kv1.2) (rat) (UniProt P63142); remark: listed apart in the source
[10] = target: rat brain membrane K channels (delayed rectifier, primarily Kv1.2) (rat) (UniProt P63142); remark: listed apart in the source

Substance | IC50 ratio (analog IC50/ShK IC50) [2] | free energy difference of binding [2] | IC50 [4] | other results
ShK A4 + A15 (peptide) | 0.5 | -0.41 kcal/mol |  | IC50 ratio (analog IC50/ShK IC50) [1]: 0.5; free energy difference of binding [1]: -0.41 kcal/mol
ShK A4 + A15 + A25 (peptide) | 0.2 | -0.94 kcal/mol |  | IC50 ratio (analog IC50/ShK IC50) [1]: 0.2; free energy difference of binding [1]: -0.94 kcal/mol
ShK F15A (peptide) | 0.6 | -0.3 kcal/mol | 6 nM | IC50 ratio (analog IC50/ShK IC50) [3]: 0.85; free energy difference of binding [3]: -0.09 kcal/mol; equipotent molar ratio (analog IC50/ShK IC50) for block of Kv1.3 current [5]: 0.85
ShK F15W (peptide) | 1 |  | 6 nM | IC50 ratio (analog IC50/ShK IC50) [3]: 0.8; free energy difference of binding [3]: -0.13 kcal/mol; equipotent molar ratio (analog IC50/ShK IC50) for block of Kv1.3 current [5]: 0.8
ShK I4A (peptide) | 0.7 | -0.2 kcal/mol |  | 
ShK K18A (peptide) | 0.8 | -0.13 kcal/mol | 10 nM | 
ShK K18E (analog 103) (peptide) |  |  |  | IC50 ratio (analog IC50/ShK IC50) [6]: 4.64
ShK K22A (peptide) | > 250 | > 3.23 kcal/mol | 300 nM | IC50 [7]: > 5 nM; Kd [8]: 0.33 nM; IC50 ratio (analog IC50/ShK IC50) [9]: > 250; free energy difference of binding [9]: > 3.23 kcal/mol; equipotent molar ratio (analog IC50/ShK IC50) for block of Kv1.3 current [5]: 2.3
ShK M21A (peptide) | 0.6 | -0.3 kcal/mol |  | 
ShK R24E (analog 102) (peptide) |  |  |  | IC50 ratio (analog IC50/ShK IC50) [6]: 2.65
ShK R29A (peptide) | 0.8 | -0.13 kcal/mol |  | 
ShK S2A (peptide) | 0.5 | -0.41 kcal/mol |  | 
ShK T6A (peptide) | 0.8 | -0.13 kcal/mol |  | 
ShK T31A (peptide) | 0.6 | -0.3 kcal/mol |  | 
ShK Y23F (peptide) | 0.8 |  | 9 nM | IC50 ratio (analog IC50/ShK IC50) [10]: 1.1; free energy difference of binding [10]: 0.09 kcal/mol; Kd [8]: 0.22 nM
ShK analog 101, triple mutant Nle21, Dat22, A23 (peptide) |  |  |  | IC50 ratio (analog IC50/ShK IC50) [6]: > 280
